Results: article PMC10464103, “Antibacterial peptide PMAP-37(F34-R), expressed in Pichia pastoris, is effective against pathogenic bacteria and preserves plums” (Microbial Cell Factories, 2023)
Peptide text beside a SMILES is read from it.

System: plums
Test: Antiseptic (preservative) effect on plums
Design: species or system plum

CC[C@H](C)[C@H](NC(=O)[C@H](CCCNC(=N)N)NC(=O)[C@H](CCC(=O)O)NC(=O)[C@@H](NC(=O)[C@H](CCCCN)NC(=O)[C@H](CCC(=O)O)NC(=O)CNC(=O)[C@H](CC(C)C)NC(=O)[C@H](CCCNC(=N)N)NC(=O)[C@H](CCCNC(=N)N)NC(=O)CNC(=O)[C@H](CCCNC(=N)N)NC(=O)[C@H](CC(=O)O)NC(=O)[C@H](CO)NC(=O)[C@H](CC(C)C)NC(=O)[C@H](Cc1ccccc1)NC(=O)[C@H](CC(=O)O)NC(=O)[C@H](CCCNC(=N)N)NC(=O)[C@H](CC(C)C)NC(=O)[C@H](CCCNC(=N)N)NC(=O)[C@H](CO)NC(=O)[C@H](CC(C)C)NC(=O)[C@H](CC(C)C)NC(=O)CN)[C@@H](C)CC)C(=O)NCC(=O)N[C@@H](CCC(N)=O)C(=O)N[C@@H](CCCCN)C(=O)N[C@H](C(=O)N[C@@H](CCCCN)C(=O)N[C@@H](CC(=O)O)C(=O)N[C@@H](CC(C)C)C(=O)N[C@@H](CO)C(=O)N[C@@H](CCC(=O)O)C(=O)N[C@@H](CCCNC(=N)N)C(=O)N[C@@H](Cc1ccccc1)C(=O)N[C@@H](CCC(N)=O)C(=O)N[C@@H](CO)C(=O)O)[C@@H](C)CC [PMAP-37(F34-R)] (H-GLLSRLRDFLSDRGRRLGEKIERIGQKIKDLSERFQS-OH; N-terminus and C-terminus assumed)
weight loss rate of plums (8 d of storage at 30 °C, sprayed with 5 mL of 0.36 µg/mL peptide): 12.22% | decay rate of plums (8 d of storage at 30 °C, sprayed with 5 mL of 0.36 µg/mL peptide, five plums per group): 60% | respiratory intensity of plums (storage at 30 °C up to 8 d, 0.36 µg/mL peptide versus sterile water): lower than that of the control group most of the time
